Pooled drug test results. Numbers come from NIAID ChemDB, via PubChem.

All rows: whole-cell or culture tests; agent: Cryptosporidium parvum; measure: inhibition

Percent inhibition refers to the dose given; in toxicity tests it is the harm to the cells.

structure | method | dose | cells | strain | value
O=c1[nH]c(=O)n([C@H]2C[C@H](O)[C@@H](CO)O2)cc1C(F)(F)F | - | 100 µg/mL | - | - | 89%
CC(=O)N[C@@H](CC(C)C)C(=O)N[C@@H](CC(C)C)C(=O)N[C@H](C=O)CCCN=C(N)N | - | 500 µg/mL | - | - | 56.6%
O=S(=O)(F)Cc1ccccc1 | cell count / microscopy | 3000 µM | - | - | 60%
CC[C@@]1([C@@H]2O[C@@H]([C@H]3O[C@@](O)(CO)[C@H](C)C[C@@H]3C)C[C@@H]2C)CC[C@H]([C@]2(C)CC[C@]3(C[C@H](O)[C@@H](C)[C@@H]([C@@H](C)[C@@H](OC)[C@H](C)C(=O)O)O3)O2)O1 | - | 0.8 µg/mL | L929 | Calf isolate | 94.89%
Cc1cn([C@H]2C[C@H](N=[N+]=[N-])[C@@H](CO)O2)c(=O)[nH]c1=O | - | 25 µg/mL | - | - | 15%
CC(C)(C)NC(=O)[C@@H]1C[C@@H]2CCCC[C@@H]2CN1C[C@@H](O)[C@H](Cc1ccccc1)NC(=O)[C@H](CC(N)=O)NC(=O)c1ccc2ccccc2n1 | - | 2.5 µg/mL | HCT-8 | - | <5%
NC(=O)c1ncn([C@@H]2O[C@H](CO)[C@@H](O)[C@H]2O)n1 | - | 50 µg/mL | - | - | 91%
CCCCc1cc2c(=O)c(C(=O)OC)c[nH]c2cc1OCc1ccccc1 | - | 4 µg/mL | L929 | Calf isolate | 30%
CO[C@H]1/C=C/O[C@@]2(C)Oc3c(C)c(O)c4c(O)c(c(/C=N/N5CCN(C)CC5)c(O)c4c3C2=O)NC(=O)/C(C)=C\C=C\[C@H](C)[C@H](O)[C@@H](C)[C@@H](O)[C@@H](C)[C@H](OC(C)=O)[C@@H]1C | cell count | 5 µM | - | - | 7.9%
O=C(O)P(=O)(O)O | - | 10 µg/mL | - | - | 1%
CC[C@H]1OC(=O)[C@H](C)[C@@H](O[C@H]2C[C@@](C)(OC)[C@@H](O)[C@H](C)O2)[C@H](C)[C@@H](O[C@@H]2O[C@H](C)C[C@H](N(C)C)[C@H]2O)[C@](C)(O)C[C@@H](C)CN(C)[C@H](C)[C@@H](O)[C@]1(C)O | cell count | 5 µM | - | - | 8.6%
Nc1ccc(S(=O)(=O)Nc2cnc3ccccc3n2)cc1 | - | 0.032 µg/mL | L929 | Human isolate | 40.29%
O=C(O)c1cc([N+](=O)[O-])c(N2CCOCC2)c([N+](=O)[O-])c1 | ELISA / luminescence | 10 µM | MDCK cells | - | 0%
CCN(CC)CCCC(C)Nc1ccnc2cc(Cl)ccc12 | - | 20 µg/mL | L929 | Calf isolate | 41.4%
CC(C)(C)NC(=O)[C@@H]1CN(Cc2cccnc2)CCN1C[C@@H](O)C[C@@H](Cc1ccccc1)C(=O)N[C@H]1c2ccccc2C[C@H]1O | - | 20 µg/mL | HCT-8 | - | 15%

A second listing of 2 rows from above:

structure,method,dose,cells,strain,value
NC(=O)c1ncn([C@@H]2O[C@H](CO)[C@@H](O)[C@H]2O)n1,-,50 µg/mL,-,-,91%
CO[C@H]1/C=C/O[C@@]2(C)Oc3c(C)c(O)c4c(O)c(c(/C=N/N5CCN(C)CC5)c(O)c4c3C2=O)NC(=O)/C(C)=C\C=C\[C@H](C)[C@H](O)[C@@H](C)[C@@H](O)[C@@H](C)[C@H](OC(C)=O)[C@@H]1C,cell count,5 µM,-,-,7.9%

Rows are shuffled and stem from different studies. An empty or dashed field is not shown.